Test results reported in PMC8999638, “Identification of Entry Inhibitors against Delta and Omicron Variants of SARS-CoV-2” (International Journal of Molecular Sciences, 2022).

Target: RBD-ACE2 attachment (RBD of viral spike protein and ACE2 receptor) (Severe acute respiratory syndrome coronavirus 2, UniProt P0DTC2)
Assay: cell-based
Parameters: species or system SARS-CoV-2; human

## O=C1CCc2ccc(OCCCCN3CCN(c4cccc(Cl)c4Cl)CC3)cc2N1 [Aripiprazole]
  Positive Screening RBD Attachment Assay Dose Response: Yes
HeLa, read-out: Positive Screening RBD Attachment Assay % Inhibition (20 μM)
  inhibition at 20 µM: 56%
HeLa, read-out: Positive Screening RBD Attachment Assay % Inhibition (100 μM)
  inhibition at 100 µM: 71%
